# Reference: patent US20160264649A1
# B1: 5329_C19 (PGT-136) (antibody, V domains shown)
# VH: QLQLQESGPGLVKPSETLSLTCTVSGGSMRGTDWGENDFHYGWIRQSSAKGLEWIGSIHWRGRTTHYKTSFRSRATLSIDTSNNRFSLTFSFVTAADTAVYYCARHKYHDIFRVVPVAGWFDPWGQGLLVTVSS
# VL: EIVMTQSPPTLSVSPGETATLSCRASQNVKNNLAWYQLKPGQAPRLLIFDASSRAGGIPDRFSGSGYGTDFTLTVNSVQSEDFGDYFCQQYEEWPRTFGQGTKVDIK
# B2: 4993_K13 (PGT-141) (antibody, V domains shown)
# VH: QVQLVQSGPEVKKPGSSVKVSCKASGNTFSKYDVHWVRQATGQGLEWVGWMSHEGDKTESAQRFKGRVTFTRDTSASTAYMELRGLTSDDTAIYYCTRGSKHRLRDYVLYDDYGLINYQEWNDYLEFLDVWGHGTAVTVSS
# VL: DTVVTQSPLSLPVTPGEAASMSCSSTQSLRHSNGANYLAWYQHKPGQSPRLLIRLGSQRASGVPDRFSGSGSGTHFTLKISRVEAEDAAIYYCMQGLNRPWTFGKGTKLEIK
# Target: HIV-1 Env of the clade A viruses (n=26) of the cross-clade 162-pseudovirus panel
# Test: cell-based or functional assay
Binder,Median IC50 (µg/ml) against all viruses,Percent viruses neutralized with an IC50 <50 µg/ml,Median IC50 (µg/ml) against viruses neutralized with an IC50 <50 µg/ml
B1,50 µg/mL,4%,
B2,1.92 µg/mL,66%,0.22 µg/mL

# Target: HIV-1 Env of the clade B viruses (n=31) of the cross-clade 162-pseudovirus panel
# Test: cell-based or functional assay
Binder,Median IC50 (µg/ml) against all viruses,Median IC50 (µg/ml) against viruses neutralized with an IC50 <50 µg/ml,Percent viruses neutralized with an IC50 <50 µg/ml
B1,50 µg/mL,13.2 µg/mL,19%
B2,33.2 µg/mL,0.48 µg/mL,52%

# Target: HIV-1 Env of all viruses (n=162) of the cross-clade 162-pseudovirus panel
# Test: cell-based or functional assay
Binder,Median IC50 (µg/ml) against all viruses,Median IC50 (µg/ml) against viruses neutralized with an IC50 <50 µg/ml,Percent viruses neutralized with an IC50 <50 µg/ml
B1,50 µg/mL,7.81 µg/mL,18%
B2,,0.35 µg/mL,56%

# Target: HIV-1 Env of the clade G pseudoviruses of the cross-clade 162-pseudovirus panel (n = 15)
# Test: cell-based or functional assay
row,Binder,Median IC50 (µg/ml) against all viruses
1,B2,> 50 µg/mL

# Target: HIV-1 Env of the clade AE viruses (n=10) of the cross-clade 162-pseudovirus panel
# Test: cell-based or functional assay
Binder,Median IC50 (µg/ml) against all viruses,Percent viruses neutralized with an IC50 <50 µg/ml,Median IC50 (µg/ml) against viruses neutralized with an IC50 <50 µg/ml
B1,50 µg/mL,0%,
B2,,40%,0.01 µg/mL

# Target: HIV-1 Env of the clade D pseudoviruses of the cross-clade 162-pseudovirus panel (n = 25)
# Test: cell-based or functional assay
row,Binder,Median IC50 (µg/ml) against all viruses
1,B2,> 50 µg/mL

# Target: HIV-1 Env of the clade AG viruses (n=10) of the cross-clade 162-pseudovirus panel
# Test: cell-based or functional assay
Binder,Median IC50 (µg/ml) against all viruses,Median IC50 (µg/ml) against viruses neutralized with an IC50 <50 µg/ml,Percent viruses neutralized with an IC50 <50 µg/ml
B1,50 µg/mL,29.1 µg/mL,10%
B2,,0.5 µg/mL,50%

# Target: HIV-1 Env of the clade G viruses (n=15) of the cross-clade 162-pseudovirus panel
# Test: cell-based or functional assay
Binder,Median IC50 (µg/ml) against all viruses,Median IC50 (µg/ml) against viruses neutralized with an IC50 <50 µg/ml,Percent viruses neutralized with an IC50 <50 µg/ml
B1,50 µg/mL,18.9 µg/mL,27%
B2,,0.3 µg/mL,67%

# Target: HIV-1 Env of the clade C viruses (n=27) of the cross-clade 162-pseudovirus panel
# Test: cell-based or functional assay
Binder,Median IC50 (µg/ml) against all viruses,Median IC50 (µg/ml) against viruses neutralized with an IC50 <50 µg/ml,Percent viruses neutralized with an IC50 <50 µg/ml
B1,50 µg/mL,7.52 µg/mL,33%
B2,3.28 µg/mL,0.33 µg/mL,70%

# Target: HIV-1 Env of the 162-pseudovirus panel representing all major circulating HIV-1 subtypes (HIV-1)
# Test: cell-based or functional assay
Binder,Median IC50 (µg/ml) against viruses neutralized with an IC50 <50 µg/ml,"Percent viruses neutralized, IC50 < 0.1 µg/ml","Percent viruses neutralized, IC50 < 1 µg/ml","Percent viruses neutralized, IC50 < 50 µg/ml"
B1,7.81 µg/mL,3%,6%,16%
B2,0.35 µg/mL,15%,36%,56%

# Target: HIV-1 Env of the clade F viruses (n=15) of the cross-clade 162-pseudovirus panel
# Test: cell-based or functional assay
Binder,Median IC50 (µg/ml) against all viruses,Median IC50 (µg/ml) against viruses neutralized with an IC50 <50 µg/ml,Percent viruses neutralized with an IC50 <50 µg/ml
B1,50 µg/mL,4.75 µg/mL,13%
B2,1.15 µg/mL,0.24 µg/mL,67%

# Target: HIV-1 Env of the clade AE pseudoviruses of the cross-clade 162-pseudovirus panel (n = 10)
# Test: cell-based or functional assay
row,Binder,Median IC50 (µg/ml) against all viruses
1,B2,> 50 µg/mL

# Target: HIV-1 Env of the clade C pseudoviruses of the cross-clade 162-pseudovirus panel (n = 27)
# Test: cell-based or functional assay
row,Binder,Median IC50 (µg/ml) against all viruses
1,B2,> 50 µg/mL

# Target: HIV-1 Env of the clade AG pseudoviruses of the cross-clade 162-pseudovirus panel (n = 10)
# Test: cell-based or functional assay
row,Binder,Median IC50 (µg/ml) against all viruses
1,B2,> 50 µg/mL

# Target: HIV-1 Env of the clade D viruses (n=25) of the cross-clade 162-pseudovirus panel
# Test: cell-based or functional assay
Binder,Median IC50 (µg/ml) against all viruses,Median IC50 (µg/ml) against viruses neutralized with an IC50 <50 µg/ml,Percent viruses neutralized with an IC50 <50 µg/ml
B1,50 µg/mL,0.05 µg/mL,4%
B2,50 µg/mL,0.37 µg/mL,28%

# Target: HIV-1 Env of the clade F pseudoviruses of the cross-clade 162-pseudovirus panel (n = 15)
# Test: cell-based or functional assay
row,Binder,Median IC50 (µg/ml) against all viruses
1,B2,> 50 µg/mL

# Target: HIV-1 Env of all pseudoviruses of the cross-clade 162-pseudovirus panel (n = 162)
# Test: cell-based or functional assay
row,Binder,Median IC50 (µg/ml) against all viruses
1,B2,> 50 µg/mL
